Measured values from several laboratories, pooled; numbers as filed in NIAID ChemDB.

Common to all: cytotoxicity tests; cells: MT-4; read-out: CC50

Rows are shuffled and stem from different studies. CCn is the concentration with n% toxicity to the cells.

smiles	result
COc1ccc([C@H]2c3c(cc4c(c3OC)OCO4)C[C@H]3CSC[C@@H]32)cc1OCc1ccccc1	>840 µM
C[C@]12CCC3C(CC=C4CC(O)CC[C@@]43C)C1CCC2C(/C=C/c1ccc(Br)cc1)=N/O	7.92 µM
C=C1CN(S(=O)(=O)c2ccc(C)cc2)CCCN(C(C)CC)CCCN(S(=O)(=O)c2ccc(C)cc2)C1	42.6 µM
O=C(O[C@@H]1Cc2c(O)cc(O)cc2O[C@@H]1c1cc(O)c(O)c(O)c1)c1cc(O)c(O)c(O)c1	16.7 µg/mL
C=C1CN(S(=O)(=O)c2ccc(C)cc2)CCCN(Cc2cccnc2)CCCN(S(=O)(=O)c2ccc(C)cc2)C1	32.6 µM
C[C@]12CCC3C(CC=C4CC(O)CC[C@@]43C)C1CCC2C1=NN(C(N)=S)C(c2ccc(Br)cc2)C1	11.78 µM
C=C1CN(S(=O)(=O)c2ccc(C)cc2)CCCN(C(C)C)CCCN(S(=O)(=O)c2ccc(C)cc2)C1	38.9 µM
Cc1cn([C@@H]2O[C@@H]3CN[C@@]4(OCC5CCOC5)CS(=O)(=O)O[C@@]34[C@H]2O[Si](C)(C)C(C)(C)C)c(=O)[nH]c1=O	29 µM
CC1(C)[C@@H](CCO)C[C@H]1n1cnc2c(=O)[nH]cnc21	108 µg/mL
O=c1[nH]c(=O)n([C@H]2C[C@H](O)[C@@H](CO)S2)cc1/C=C/Br	>500 µM
[C-]#[N+]C[C@H]1O[C@@H](n2ccc(=O)[nH]c2=O)C[C@@H]1O	>200 µM
Cc1cn([C@H]2C[C@H](O)[C@@H](CO)S2)c(=O)[nH]c1=O	1 µM
CNc1ncnc2c1ncn2[C@H]1S[C@@H](CO)C[C@@H]1N=[N+]=[N-]	>100 µM
Cc1ccc(S(=O)(=O)NC(C)c2nnc(SCc3ccc(F)cc3)o2)cc1	70.8 µg/mL
CCCCCCCCCCCCCCCCCCOC(=O)c1cc(O)c(O)c(O)c1	1.4 µg/mL
Cc1ccc(S(=O)(=O)N(Cc2ccc(Br)cc2)C(C)c2nnc(SCc3ccc(Br)cc3)o2)cc1	>125 µg/mL
Cc1cn([C@@H]2O[C@@H]3CN[C@@]4(C#N)CS(=O)(=O)O[C@@]34[C@H]2O)c(=O)[nH]c1=O	>250 µM
CNc1ncnc2c1ncn2[C@@H]1O[C@H](CO)C[C@@H]1N=[N+]=[N-]	100.8 µg/mL
C=C1CN(S(=O)(=O)c2ccc(C)cc2)CCCN(C(=O)OCC)CCCN(S(=O)(=O)c2ccc(C)cc2)C1	>75 µM
[C-]#[N+]C[C@H]1O[C@@H](n2cc(C)c(=O)[nH]c2=O)C[C@@H]1N=[N+]=[N-]	>40 µM
CC1(C)[C@@H](CCO)C[C@H]1n1nnc2c(N)ncnc21	83 µg/mL
C[C@]12CCC3C(CC=C4C[C@@H](O)CC[C@@]43C)C1CCC2C(=O)/C=C/c1cc(Br)ccc1O	12.05 µM
C=C1CN(S(=O)(=O)c2ccc(C)cc2)CCCN(Cc2ccncc2)CCCN(S(=O)(=O)c2ccc(C)cc2)C1	32.4 µM
[N-]=[N+]=N[C@H]1C[C@H](CO)SC1n1cnc2c(N)ncnc21	>100 µM
Cc1ccc(-c2c([C@H](OC(C)(C)C)C(=O)O)c(C)nc3ccccc23)cc1C	76 µM
CNc1ncnc2c1ncn2[C@@H]1S[C@H](CO)C[C@@H]1N=[N+]=[N-]	>100 µM
O=CC1OC(=O)c2cc(O)c(O)c(O)c2Oc2cc3c(c(O)c2O)-c2c(cc(O)c(O)c2O)C(=O)OCC2OC(OC(=O)c4cc(O)c(O)c(O)c4Oc4cc5c(c(O)c4O)-c4c(cc(O)c(O)c4O)C(=O)OC(C(O)COC5=O)C1OC(=O)c1cc(O)c(O)c(O)c1)C(OC(=O)c1cc(O)c(O)c(O)c1)C(OC(=O)c1cc(O)c(O)c(O)c1)C2OC3=O	74.3 µg/mL
CC1(C)[C@@H](CCO)C[C@H]1n1cnc2c(=O)[nH]c(N)nc21	≥250 µg/mL
C=C1CN(S(=O)(=O)c2ccc(C)cc2)CCCN(CCC(C)C)CCCN(S(=O)(=O)c2ccc(C)cc2)C1	32.5 µM
O=C(O[C@@H]1O[C@@H]2COC(=O)c3cc(O)c(O)c(O)c3-c3c(cc(O)c(O)c3O)C(=O)O[C@H]2[C@H](OC(=O)c2cc(O)c(O)c(O)c2)[C@H]1OC(=O)c1cc(O)c(O)c(O)c1)c1cc(O)c(O)c(Oc2c(C(=O)O[C@H]3[C@H](OC(=O)c4cc(O)c(O)c(O)c4)O[C@@H]4COC(=O)c5cc(O)c(O)c(O)c5-c5c(cc(O)c(O)c5O)C(=O)O[C@H]4[C@@H]3OC(=O)c3cc(O)c(O)c(O)c3)cc(O)c(O)c2O)c1	56.8 µg/mL
COc1ccc([C@H]2c3c(cc4c(c3OC)OCO4)C[C@@H](C)[C@@H]2C)cc1O	127 µM
[N-]=[N+]=N[C@@]1(CO)CO[C@@H](n2cnc3c(N)ncnc32)C1	>100 µg/mL
COc1cc([C@H]2c3c(cc4c(c3OC)OCO4)C[C@H]3COC(=O)[C@@H]32)cc(C)c1OC	486 µM
[N-]=[N+]=N[C@@H]1C[C@@H](CO)S[C@H]1n1cnc2c(Cl)ncnc21	>100 µM
Nc1ncnc2c1ncn2[C@@H]1C[C@](N)(CO)CO1	>100 µg/mL
CCO[C@]12CS(=O)(=O)O[C@@]13C(CN2)O[C@@H](n1cc(C)c(=O)n(C)c1=O)[C@@H]3O[Si](C)(C)C(C)(C)C	49 µM
Nc1ccn([C@H]2CC[C@@H](CO)O2)c(=O)n1	34 µM
C=C1CN(S(C)(=O)=O)CCCN(Cc2ccccc2)CCCN(S(C)(=O)=O)C1	>75 µM
O=c1[nH]c(=O)n([C@H]2C=C[C@@H](CO)O2)cc1Cl	45 µM
[N-]=[N+]=N[C@@]1(CO)CO[C@H](n2cnc3c(N)ncnc32)C1	>100 µg/mL
[N-]=[N+]=N[C@H]1C[C@@H](CO)S[C@@H]1n1cnc2c(N)ncnc21	>100 µM
CC(NS(=O)(=O)c1ccc(Cl)cc1)c1nnc(SCc2ccc(Cl)cc2)o1	14.08 µg/mL
C=C1CN(S(=O)(=O)c2ccc(Br)cc2)CCCN(Cc2ccccc2)CCCN(S(=O)(=O)c2ccc(Br)cc2)C1	47.7 µM
Cc1cn([C@@H]2O[C@@H]3CN[C@@]4(OCCOc5ccccc5)CS(=O)(=O)O[C@@]34[C@H]2O[Si](C)(C)C(C)(C)C)c(=O)[nH]c1=O	4.8 µM
C=C1CN(S(=O)(=O)c2ccc(C)cc2)CCCN(CC(C)CC)CCCN(S(=O)(=O)c2ccc(C)cc2)C1	34.5 µM
Cc1cn([C@@H]2S[C@H](CO)C[C@@H]2N=[N+]=[N-])c(=O)[nH]c1=O	>100 µM
Cc1cn([C@H]2C[C@H](NC#N)[C@@H](CO)O2)c(=O)[nH]c1=O	100 µM
O=CC(OC(=O)c1cc(Oc2cc3c(c(O)c2O)Oc2cc(cc(O)c2O)C(=O)OC2OC4COC(=O)c5cc(O)c(O)c(O)c5-c5c(cc(O)c(O)c5O)C(=O)OC4C(OC(=O)c4cc(O)c(O)c(O)c4)C2OC3=O)c(O)c(O)c1O)C(OC(=O)c1cc(O)c(O)c(O)c1)C1OC(=O)c2cc(O)c(O)c(O)c2-c2c(cc(O)c(O)c2O)C(=O)OCC1O	64.3 µg/mL
[N-]=[N+]=N[C@H]1C[C@@H](CO)O[C@H]1n1cnc2c(NC3CCCCC3)ncnc21	>125 µg/mL
CO[C@]12CS(=O)(=O)O[C@@]13C(CN2)O[C@@H](n1cc(C)c(=O)[nH]c1=O)[C@@H]3O[Si](C)(C)C(C)(C)C	63 µM
COc1c2c(cc3c1[C@H](c1ccc(O)c(Oc4ccccc4)c1)[C@H]1C(=O)OC[C@@H]1C3)OCO2	>840 µM
CCS[C@]12CS(=O)(=O)O[C@@]13[C@@H](CN2)O[C@@H](n1cc(C)c(=O)[nH]c1=O)[C@@H]3O	208 µM
O=C(OC[C@H]1O[C@@H](OC(=O)c2cc(O)c(O)c(O)c2)[C@H](OC(=O)c2cc(O)c(O)c(O)c2)[C@@H](O)[C@@H]1O)c1cc(O)c(O)c(O)c1	29.7 µg/mL
Cc1cn([C@H]2C[C@H](NC(=O)C(F)(F)F)[C@@H](CO)O2)c(=O)[nH]c1=O	1 µM
CCO[C@]12CS(=O)(=O)O[C@@]13C(CN2)O[C@@H](n1cc(C)c(=O)[nH]c1=O)[C@@H]3O[Si](C)(C)C(C)(C)C	24.8 µM

Repeating the final 7 entries:

smiles | result
[N-]=[N+]=N[C@H]1C[C@@H](CO)O[C@H]1n1cnc2c(NC3CCCCC3)ncnc21 | >125 µg/mL
CO[C@]12CS(=O)(=O)O[C@@]13C(CN2)O[C@@H](n1cc(C)c(=O)[nH]c1=O)[C@@H]3O[Si](C)(C)C(C)(C)C | 63 µM
COc1c2c(cc3c1[C@H](c1ccc(O)c(Oc4ccccc4)c1)[C@H]1C(=O)OC[C@@H]1C3)OCO2 | >840 µM
CCS[C@]12CS(=O)(=O)O[C@@]13[C@@H](CN2)O[C@@H](n1cc(C)c(=O)[nH]c1=O)[C@@H]3O | 208 µM
O=C(OC[C@H]1O[C@@H](OC(=O)c2cc(O)c(O)c(O)c2)[C@H](OC(=O)c2cc(O)c(O)c(O)c2)[C@@H](O)[C@@H]1O)c1cc(O)c(O)c(O)c1 | 29.7 µg/mL
Cc1cn([C@H]2C[C@H](NC(=O)C(F)(F)F)[C@@H](CO)O2)c(=O)[nH]c1=O | 1 µM
CCO[C@]12CS(=O)(=O)O[C@@]13C(CN2)O[C@@H](n1cc(C)c(=O)[nH]c1=O)[C@@H]3O[Si](C)(C)C(C)(C)C | 24.8 µM